Earlier results, collected in US12545699B2, “Bivalent LECA inhibitors targeting biofilm formation of Pseudomonas aeruginosa” (HELMHOLTZ-ZENTRUM FÜR INFEKTIONSFORSCHUNG GMBH, priority 2019, dated 2026).

Chains of the proteins cited; added tags and fusions are not shown.
UniProt Q05097, whole entry: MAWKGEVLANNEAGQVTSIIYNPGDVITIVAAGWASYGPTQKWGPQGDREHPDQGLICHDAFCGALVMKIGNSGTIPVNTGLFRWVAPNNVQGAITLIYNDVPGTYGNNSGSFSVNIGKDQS

Target: LecA (Pseudomonas aeruginosa, UniProt Q05097)
Conditions: read-out: intrinsic affinity (Kd) of the fluorescent tracer to LecA; from Joachim et al., Org Biomol Chem 2016; cited from earlier work

For O=C(CNC(=S)Nc1ccc(-c2c3ccc(=O)cc-3oc3cc(O)ccc23)c(C(=O)O)c1)Nc1cccc(O[C@@H]2O[C@H](CO)[C@H](O)[C@H](O)[C@H]2O)c1, the Kd is given as 7.4 µM.
